Reference: BindingDB's records for doi:10.1021/acs.jmedchem.5b01461 (University of Bonn, 2016)

Molecular target: Replicase polyprotein 1ab (Severe acute respiratory syndrome coronavirus, UniProt P0C6X7)

Work on CC(C)(C)NC(=O)C(c1cccnc1)N(C(=O)c1c[nH]cn1)c1ccc(C(C)(C)C)cc1 (stereo unspecified) [med.21724, Compound 125] yielded an IC50 of 6 µM.
